Experimental data as given in the supplement of paper PMC9931576.
Human monoclonal antibodies against the spike receptor-binding domain (heavy:light variable regions). IC50 against pseudoviruses bearing the spike of naturally observed variants; lower = stronger; >10 µg/ml means not reached at the top dose. No active / inactive call. The stated detection limit is 0.0005 µg/ml; values near or below 0.001 µg/ml lie at the floor of the assay.

B1: BD55-5721 (protein)
chain 1: QVQLVQSGAEVKKPGSSVKVSCKASGGTFSSYIINWVRQAPGQGLEWMGRIIPSLGVVNDAQKFQGRVTFIADKSTSTAYMELSGLRSEDTAVYYCARQQWLVDLYSYYGLDVWGQGTTVTVSS
chain 2: DIVMTQTPLSLSVTPGQPAYISCKSSQSLLDTDGKTYLYWYLQKPGQSPQLLIYEVSRRFSGVPERFSGSGSGTDFTLKISRVEAEDVGVYYCMQATHLPYTFGQGTKLEIK
B2: BD55-5634 (protein)
chain 1: QVQLVQSGSELKKPGASVKVSCKASGYIFTSYAINWVRQAPGQGLEWMGWIITNSGNPTYAQGFTGRFVFSLDTSVNTAYLQISSLKPEDTGVYYCARFSYLPPEELPYFDWSAHYYYYYAMDVWGQGTTVTVSS
chain 2: QSALTQPASVSGSPGQSITVSCTGTSSDVGAHNLVSWYQQYPGKAPKVMIYEDTKRPSGVSSRFSGSKSGNTASLTISGLQAEDEAAYYCFSYASSRSVVFGGGTKLTVL
B3: BD55-5659 (protein)
chain 1: EVQLVESGGDLVQPGRSLRLSCAASGFTFDDYAMHWVRQGPGKGLEWVSGITWNSGSIGYADSVKGRFTISRDNAKNSLYLQMNSLRAEDTALYYCVKDTFRSGSYPWAFDLWGQGTMVTVSS
chain 2: EIVLTQSPATLSLSPGERATLSCRASQSVRSFLAWYQQKPGQAPRLLIYDASNRATGIPARFSGSGSGTSFTLTISSLEPEDFAVYYCQQRSDWRGTFGPGTKVDIK
B4: BD55-5643 (protein)
chain 1: QVQLVQSGSELKKPGASVKLSCKASGNTFTNYAMNWVRQAPGQGLEWMGWVNTNTGHPTYAQGFTGRFVFSFDTSVNTAYLQISSLKTEDTAVYYCAGSNWNDYWFDPWGQGTLVTVSS
chain 2: EIVMTQSPATLSVSPGERATLSCRASYSLSNNLAWYQQKPGQAPRLLIYDASTRATGFPARFSGSGSGTEFSLTISSLQSEDVAVYYCQQYTSWPLTFGQGTKVEI
B5: BD55-5743 (protein)
chain 1: QVQLVQSGSELQRPGASVKVSCKASGYTFSTYALKWVRQAPGQGLEWMGWINTNTGNPTYAQGFAGRFVFSLDASVTTAYLQINSLKPEDTAIYYCARVFCSYDTCYDVDYWGQGTLVTVSS
chain 2: QSVLTQPPSASGTPGQRVTISCSGSSSNIGSNFVYWYQQLPGTAPKLLIYRNNHRPSGVPDRFSGSKSGTSASLAITGLRSEDEADYYCAAWDDGLTGRMFGGGTKLTVL
B6: BD55-5733 (protein)
chain 1: QVQLVQSGAEVKKPGSSVKVSCKASGETFRSHTLNWMRQAPGQGLEWMGRIIPFLGVATGAQKFQARVTITADKSTSTAYMELSSLRSEDTAVYYCARGVVAATPGAFDIWGQGTLVTVSS
chain 2: EIVMTQSPATLSVSPGERATLSCRASQSVGSDLAWYQQKPGQAPRLLISGASTRATGIPARFTGSGSGTEFTLTISSLQSEDFAVYFCQQYNNWLTFGQGTKVEIK
B7: BD55-5745 (protein)
chain 1: QVQLVQSGSELKKPGASVKISCKASGYTFTTYGIKWVRQAPGQGLEWMGWINTNTGNPTYAQAFTGRFVFSLDTSVSTAYLQIDSLDTEDTAFYYCARVFCTDYTCFDVDYWGQGTPLTVSS
chain 2: QSVLTQPPSASGAPGQRVTISCSGSNSNIGSNYVYWYQHLPGTAPKLLIYRDNNRPSGVPDRFSGSKSGTSASLAISGLRSEDEADYYCAVWDDRLSGRVFGGGTKLAVL
B8: BD55-5620 (protein)
chain 1: QITLKESGPTLVKPTQTLTLTCTFSGFSLTATGMGVGWIRQPPEKALEWLALIYWLDDTRYSPSLESRLTLTKDTSKNQVVLTMTNMDPVDTGTYYCAHLYYDSSSGYDTTGPDAFDFWGQGTMVTVSP
chain 2: AIQITQSPSSLSASPGDTVTITCRASQPITNFLAWYQQRRGRAPKLLIHSASTLQSGVPWRFSGSGSGTHFTLTIRGLQSEDFATYYCQQYLSYPPTFGHGTKVEF
B9: BD55-5753 (protein)
chain 1: QAQLVQSGAEVKKPGASVKVSCKASGYTSTSFDVNWVRQATGQGLEWMGWVNPKTGDTGYAQKFEGRVTMTRNTSISTVYMELNSLRSEDTAVYFCATGLYYWPNVFDPWGQGTLVIVSS
chain 2: DIQMTQSPSSLSASVGDRVTITCRASQSISNELSWYQQRPGKAPKLLIYTASSLQSGVPSRFSGSGSGTDFTLTISSLQPEDFATYYCQQSYSTPGTFGLGTKLEIK
B10: BD55-5638 (protein)
chain 1: QIQLVQSGAEVKKPGASVKVSCKASGYNFRSYGISWVRQAPGQGLEWMGWISGYDGNTEYKQNFQGRVTMTTDTSTSTAYMELRSLRSDDTAVFYCARDRVYSGYDSTDMNPQGDYWGQGTLVTVSS
chain 2: DIQMAQSPSTLSASVGDRVSITCRTSQSVSDLLAWYQQKPGKAPKLLIYKTSSLESGVPSRFSGSGSGTDFTLTISSLQPDDIATYYCQQYKFYWTFGQGTRVEIK
B11: BD55-5700 (protein)
chain 1: EVQLVEAGGGLVQPGRSLRLSCTASGFSFGDHAMNWVRQAPGKGLEWVGFIRTKPYGGTTDYAASVRGRFTISRDDSKSIAYLQMNSLKTEDTAVYYCAREEDRGYSGYDFLDYFYGMDVWGQGTTVTVSS
chain 2: QSVLTQPPSASGTPGQRVTISCSGSSSNIGREYVYWYQQLPGTAPKLLIYRNNQRPSGVPDRFSGSKSGTSASLAISGLRSEDEADYYCAAWDDSLSAFVFGTGTRVTVL
B12: BD55-5631 (protein)
chain 1: QVQLVQSGAEVKKPGSSVRVSCKASGSTFSTHAISWVRQAPGQGLEWVGRIVPILDMTNYAQKFQGRVTITADKSTSTAYMELSSLRSDDTAVYYCARYKWNDGDSYYYVMDVWGQGTTVIVSS
chain 2: DIQMTQSPSSLSASVGDRVTITCRASQAINTYLLWYQQKPGKAPNLLIYGASSLQSGVPSRFSGSGSGTDFTLTISSLQPEDFATYYCQQSYTTPTFGQGTRLEIK

molecular target: SARS-CoV-2 Omicron BA.1 spike pseudovirus; test: pseudovirus neutralization IC50; higher = weaker neutralization
Procedure: (§1)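 Single-round VSV luciferase pseudovirus mixed with antibody dilutions for 1 h and put on Huh-7 cells for about a day; IC50 from the dose curve.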

B1 and B2 cannot be ordered by “pseudovirus neutralization IC50” value: greater than 10 µg/mL for the first, greater than 10 µg/mL for the second.

First: B3
Second: B4
The “pseudovirus neutralization IC50” value of the first is higher: greater than 10 µg/mL for the first, 1.9 µg/mL for the second.

B5 and B6 cannot be ordered by “pseudovirus neutralization IC50” value: greater than 10 µg/mL for the first, greater than 10 µg/mL for the second.

B7 and B8 cannot be ordered by “pseudovirus neutralization IC50” value: greater than 10 µg/mL for the first, greater than 10 µg/mL for the second.

B9 and B10 cannot be ordered by “pseudovirus neutralization IC50” value: greater than 10 µg/mL for the first, greater than 10 µg/mL for the second.

Going from B11 to B12, the “pseudovirus neutralization IC50” value rises from 0.0669 µg/mL to greater than 10 µg/mL.

molecular target: SARS-CoV-2 Omicron BA.2 spike pseudovirus; test: as above
Procedure: as §1

First: B1
Second: B2
The “pseudovirus neutralization IC50” value of the first is lower: 2.17 µg/mL for the first, greater than 10 µg/mL for the second.

First: B3
Second: B4
The “pseudovirus neutralization IC50” value of the first is higher: greater than 10 µg/mL for the first, 1.2 µg/mL for the second.

B5 and B6 cannot be ordered by “pseudovirus neutralization IC50” value: greater than 10 µg/mL for the first, greater than 10 µg/mL for the second.

B7 and B8 cannot be ordered by “pseudovirus neutralization IC50” value: greater than 10 µg/mL for the first, greater than 10 µg/mL for the second.

B9 and B10 cannot be ordered by “pseudovirus neutralization IC50” value: greater than 10 µg/mL for the first, greater than 10 µg/mL for the second.

B11 and B12 cannot be ordered by “pseudovirus neutralization IC50” value: greater than 10 µg/mL for the first, greater than 10 µg/mL for the second.

molecular target: SARS-CoV-2 Omicron BA.2.75 spike pseudovirus; test: as above
Procedure: as §1

B1 and B2 cannot be ordered by “pseudovirus neutralization IC50” value: greater than 10 µg/mL for the first, greater than 10 µg/mL for the second.

First: B3
Second: B4
The “pseudovirus neutralization IC50” value of the first is higher: greater than 10 µg/mL for the first, 6.19 µg/mL for the second.

B5 and B6 cannot be ordered by “pseudovirus neutralization IC50” value: greater than 10 µg/mL for the first, greater than 10 µg/mL for the second.

B7 and B8 cannot be ordered by “pseudovirus neutralization IC50” value: greater than 10 µg/mL for the first, greater than 10 µg/mL for the second.

B9 and B10 cannot be ordered by “pseudovirus neutralization IC50” value: greater than 10 µg/mL for the first, greater than 10 µg/mL for the second.

B11 and B12 cannot be ordered by “pseudovirus neutralization IC50” value: greater than 10 µg/mL for the first, greater than 10 µg/mL for the second.

molecular target: SARS-CoV-2 Omicron BA.5 spike pseudovirus; test: as above
Procedure: as §1

B1 and B2 cannot be ordered by “pseudovirus neutralization IC50” value: greater than 10 µg/mL for the first, greater than 10 µg/mL for the second.

Going from B3 to B4, the “pseudovirus neutralization IC50” value falls from greater than 10 µg/mL to 1.32 µg/mL.

B5 and B6 cannot be ordered by “pseudovirus neutralization IC50” value: greater than 10 µg/mL for the first, greater than 10 µg/mL for the second.

B7 and B8 cannot be ordered by “pseudovirus neutralization IC50” value: greater than 10 µg/mL for the first, greater than 10 µg/mL for the second.

B9 and B10 cannot be ordered by “pseudovirus neutralization IC50” value: greater than 10 µg/mL for the first, greater than 10 µg/mL for the second.

B11 and B12 cannot be ordered by “pseudovirus neutralization IC50” value: greater than 10 µg/mL for the first, greater than 10 µg/mL for the second.

molecular target: SARS-CoV-2 Omicron BQ.1.1 spike pseudovirus; test: as above
Procedure: as §1

B1 and B2 cannot be ordered by “pseudovirus neutralization IC50” value: greater than 10 µg/mL for the first, greater than 10 µg/mL for the second.

B3 and B4 cannot be ordered by “pseudovirus neutralization IC50” value: greater than 10 µg/mL for the first, greater than 10 µg/mL for the second.

B5 and B6 cannot be ordered by “pseudovirus neutralization IC50” value: greater than 10 µg/mL for the first, greater than 10 µg/mL for the second.

B7 and B8 cannot be ordered by “pseudovirus neutralization IC50” value: greater than 10 µg/mL for the first, greater than 10 µg/mL for the second.

B9 and B10 cannot be ordered by “pseudovirus neutralization IC50” value: greater than 10 µg/mL for the first, greater than 10 µg/mL for the second.

B11 and B12 cannot be ordered by “pseudovirus neutralization IC50” value: greater than 10 µg/mL for the first, greater than 10 µg/mL for the second.

molecular target: SARS-CoV-2 Omicron XBB spike pseudovirus; test: as above
Procedure: as §1

B1 and B2 cannot be ordered by “pseudovirus neutralization IC50” value: greater than 10 µg/mL for the first, greater than 10 µg/mL for the second.

B3 and B4 cannot be ordered by “pseudovirus neutralization IC50” value: greater than 10 µg/mL for the first, greater than 10 µg/mL for the second.

B5 and B6 cannot be ordered by “pseudovirus neutralization IC50” value: greater than 10 µg/mL for the first, greater than 10 µg/mL for the second.

B7 and B8 cannot be ordered by “pseudovirus neutralization IC50” value: greater than 10 µg/mL for the first, greater than 10 µg/mL for the second.

B9 and B10 cannot be ordered by “pseudovirus neutralization IC50” value: greater than 10 µg/mL for the first, greater than 10 µg/mL for the second.

B11 and B12 cannot be ordered by “pseudovirus neutralization IC50” value: greater than 10 µg/mL for the first, greater than 10 µg/mL for the second.

molecular target: SARS-CoV-2 early D614G spike pseudovirus; test: as above
Procedure: as §1

First: B1
Second: B2
The “pseudovirus neutralization IC50” value of the first is 1300-fold higher: 1.32 µg/mL for the first, 0.001 µg/mL for the second.

B3 and B4 are within 1.5-fold of each other in “pseudovirus neutralization IC50” value: 0.00117 µg/mL for the first, 0.00124 µg/mL for the second.

Going from B5 to B6, the “pseudovirus neutralization IC50” value falls from 0.0538 µg/mL to 0.00128 µg/mL (42-fold).

First: B7
Second: B8
The “pseudovirus neutralization IC50” value of the first is 5.8-fold higher: 0.243 µg/mL for the first, 0.0416 µg/mL for the second.

Going from B9 to B10, the “pseudovirus neutralization IC50” value falls from greater than 10 µg/mL to 0.473 µg/mL.

Compared with B11, B12 is 53-fold lower in “pseudovirus neutralization IC50” value: 0.0733 µg/mL for the first, 0.00138 µg/mL for the second.
